Assay results reported in US20170298395A1, “AUTOTROPHIC HYDROGEN BACTERIA AND USES THEREOF” (Ohio State Innovation Foundation, priority 2011, published 2017).

Test system: Ralstonia eutropha

n-butanol
butanol concentration above which growth was not seen: above 0.6 % butanol (v/v)
butanol tolerance of isolates compared to wild type: over a six fold increase
butanol tolerated before growth was affected: about 0.8%
